Here are results for seven molecules from US20090036437A1, “PHARMACEUTICAL COMPOSITION COMPRISING PHENOXAZINIUM COMPOUND AS AN ACTIVE INGREDIENT” (priority 2005, published 2009).

SMILES strings stand for the structures.

Holding throughout (format): cell-based
Data set [1] concerns Plasmodium Falciparum K1 strain. Briefly: in vitro growth-inhibiting screening assay, chloroquine-resistant falciparum malaria. Particulars: EC50 rat L6 cell / EC50 P. falciparum K1. The procedure:
Plasmodium Falciparum K1 strain was used as a chloroquine-resistant protozoa of falciparum malaria. RMI-1640 sterilized by filtration was supplemented with human serum of a final concentration of 5% to be used as a culture medium. The malaria protozoa were cultured under O2 concentration of 3%, CO2 concentration of 4%, N2 concentration of 93% at 37° C.
A test sample was prepared by dissolving the test compounds according to the present invention and a positive control drug (chloroquine) in DMSO to a predetermined concentration. The erythrocytes infected with the cultured malaria protozoa were collected by centrifugation and so diluted with non-infected erythrocytes to have an initial infection ratio of 0.15%. The hematocrit value was then 2.5%. Culture mixture of the above malaria-infection culture medium (200 μL) was placed into each well of a 96-well culture plate, and the test sample comprising the predetermined amount of the test compound, and DMSO without the test compound were added to the wells in duplicate.
After culture for 48 hours at 37° C., hypoxanthine labeled with radioactive tritium (^3H) of 0.5 μCi was added to each well. After the culture in the same conditions for further 24 hours, the sample was taken on a glass fiber filter and washed with distilled water. Intensity of radiation was measured by means of plate liquid scintillation counter (Wallac Co.), and an infection ratio of the protozoa of malaria was calculated with respect to a group treated with the test sample and the control. A growth-inhibiting ratio was then calculated from the resulting infection ratio in accordance with the following equation to determine 50% growth-inhibiting concentration (EC50).
Growth-inhibiting ratio (%)=[1−(b−a)/(c−a)]×100 • a: Initial infection ratio; • b: Infection ratio of the test sample group; and • c: Infection ratio of the control group. In vitro Growth-Inhibiting Assay of Rat L6 Cells
Anti-malaria effect of the samples was assessed by their EC50 values for the chloroquine-resistant protozoa of falciparum malaria and the rat L6 cell. A chemotherapy coefficient, which is used as an index for the selective toxicity for the chloroquine-resistant protozoa of falciparum malaria was calculated by the following equation, and the pharmaceutical effect was determined.
Chemotherapy coefficient=(EC50 value of the test sample for rat L6 cell)/(EC50 value of the test sample for the chloroquine-resistant protozoa of falciparum malaria)

Data set [2] deals with Trypanosoma brucei rhodensiense (STIB 900 strain). Briefly: in vitro growth-inhibiting screening assay, protozoa of African trypanosomiasis. The settings on record: EC50 rat L6 cell / EC50 protozoa of African trypanosomiasis. The method, then:
This test was done using a trypomastigote of the protozoa of Trypanosoma brucei rhodensiense (STIB 900 strain) ranging in blood stream. MEM medium sterilized by filtration was supplemented with 25 mM of N-2-hydroxyethylpiperazine-2-ethanesulfonic acid (HEPES), 1 g/L of glucose, 1% of MEM non-essential amino acids, 0.2 mM of 2-mercaptoethanol, 2 mM of sodium pyruvate, 1 mM of hypoxathine and 15% of heat-treated horse serum. The protozoa were cultured under CO2 concentration of 5%, at 37° C.
A test sample was prepared by dissolving the test compounds according to the present invention and a positive control drug (Melarsoprol) in DMSO to a predetermined concentration. Culture medium containing the protozoa of 8×10^3, and the test sample comprising the predetermined amount of the test compound, and DMSO without the test compound were added into each well of 96-well culture plate to a final volume of 100 μL in duplicate.
(§1) After incubation of the culture plate for 72 hours in an incubator, a growth-inhibiting activity was assayed as follows. Alamar Blue aqueous solution (10 μL) was added to each well followed by a further two-hour culture. The culture plate was then attached to a fluorescence micro titer plate reader (Spectramax Gemeni XS; U.S. Molecular Device Co.), the intensity of fluorescence at 588 nm was detected with excitation wave length of 536 nm to calculate an infection ratio of the protozoa with respect to a group treated with the test sample and a control group. A growth-inhibiting ratio was then calculated from the resulting infection ratio in accordance with the following equation to determine 50% growth-inhibiting concentration (EC50).
(§2) Growth-inhibiting ratio (%)=[1−(b−a)/(c−a)]×100 • a: Initial infection ratio; • b: Infection ratio of the test sample group; and • c: Infection ratio of the control group.
A selective toxicity coefficient, which is used as an index for the selective toxicity for the protozoa of African trypanosomiasis, was calculated by the following equation, and the pharmaceutical effect was determined. […]

Data set [3] deals with Leishmania donovani (MHOM/ET/67/L82 strain). Briefly: in vitro growth-inhibiting screening assay, protozoa of Leishmaniasis. Particulars: EC50 rat L6 cell / EC50 protozoa of Leishmaniasis. The procedure: This test was done using the protozoa of Leishmania donovani (MHOM/ET/67/L82 strain). The protozoa were subcultured using Syrian Golden hamster and an amastigote was obtained therefrom. The amastigotes were cultured in SM medium supplemented with 10% of heat-treated fetal calf serum (pH 5.4) under CO2 concentration of 5%, at 37° C.
A test sample was prepared by dissolving the test compounds according to the present invention and a positive control drug (Miltefosine) in DMSO to a predetermined concentration. Culture medium containing a predetermined number of the protozoa was added into each well of a 96-well culture plate, and the concentration of the amastigotes was measured by means of CASY cell analysis system (Dermany, Scharfe Co.). Test sample comprising the predetermined amount of the test compound, and DMSO without the test compound were added to the wells in duplicate.
as §1, with “device” for “Device”, “trated” for “treated”
as §2
A selective toxicity coefficient, which is used as an index for the selective toxicity for the protozoa of Leishmaniasis, was calculated by the following equation, and the pharmaceutical effect was determined. […]

Regarding `CCN(CC)c1ccc2nc3ccc(=[N+](CC)CC)cc-3oc2c1.[Cl-]` [A-1 (>95% purity)], in data set [1], the Selective toxicity is recorded as 9600.

In the case of `CN(C)c1ccc2nc3ccc(=[N+](C)C)cc-3oc2c1.CN(C)c1ccc2nc3ccc(=[N+](C)C)cc-3oc2c1.[Cl-].[Cl-].[Cl][Zn][Cl]` [Compound A-3], the Selective toxicity is recorded as 570 in data set [1], 16 in data set [2] and 10 in data set [3]. On the same counts, the results for `CCCC[N+](CCCC)=c1ccc2nc3ccc(N(CC)CC)cc3oc-2c1.[Cl-]` [Compound A-6] are 350, 12 and 36. On the same counts, the results for `CCCC[N+](CCCC)=c1ccc2nc3ccc(N(C)C)cc3oc-2c1.[O-][Cl+3]([O-])([O-])[O-]` [Compound A-7] are 270, 3.6 and 68. In data set [1], `CN(C)c1ccc2nc3ccc(N4CCNCC4)cc3[o+]c2c1.Cl.[Cl-]` [Compound A-11, 3-dimethylamino-7-(1-piperazino) phenoxazinium chloride mono-hydrochloride salt] yielded a Selective toxicity of 2000.

In data set [1], `CN1CCN(c2cc(O)c3nc4ccc(=[N+](C)C)cc-4oc3c2)CC1.Cl.[Cl-]` [Compound A-14] yielded a Selective toxicity of 440.

For the molecule `C[N+](C)=c1ccc2nc3c(O)cc(N4CCN(CCO)CC4)cc3oc-2c1.Cl.[Cl-]` [Compound A-15], in data set [1], the Selective toxicity was found to be 390.
